Results of unrelated studies side by side (data: NIAID ChemDB).

Common to all: target-level tests; species: Hepatitis C virus; target: Nonstructural protein 5B; read-out: IC50

Rows are shuffled and stem from different studies.

CCNS(=O)(=O)c1cc2oc(-c3ccc(F)cc3)c(C(=O)NC)c2cc1OC(C)C ; result: ≤0.5 µM
COc1ccc(CCC2(C3CCCC3)CC(=O)C(C(=O)Cc3ccccc3)C(=O)O2)cc1 ; result: 10–50 µM
COc1nc(Nc2ccc3cn[nH]c3c2)nc(NN2CCN(C)CC2)n1 ; result: 1–10 µg/mL
COc1c(-c2ccc3cc(NS(C)(=O)=O)ccc3c2)cc(-n2ccc(=O)[nH]c2=O)cc1C(C)(C)C ; method: nucleotide incorporation ; strain or isolate: GT 3a#2 ; result: 11.9 µM
C[C@@]1(O)[C@H](O)[C@@H](COP(=O)([O-])OP(=O)([O-])OP(=O)([O-])O)O[C@H]1n1cnc2c(N)nc(N)nc21 ; method: nucleotide incorporation ; strain or isolate: WT gt 4a ; result: 1.4 µM
Cc1cc(CCC2(C3CCCC3)CC(O)=CC(=O)O2)ccc1C1(C)OCCO1 ; result: 1–10 µM
CNC(=O)c1c(-c2ccc(F)cc2)oc2cc(N(C)S(C)(=O)=O)c(OCC(C)(C)O)cc12 ; result: ≤0.5 µM
OCc1ccn2cc(-c3cn(Cc4cc(Cl)c(Cl)c(Cl)c4)nn3)nc2c1 ; method: nucleotide incorporation / radiometric ; strain or isolate: GT1b ; result: 32.4 µM
COc1nc(Nc2ccc3[nH]ncc3c2)nc(N2CCC(C(N)=O)CC2)n1 ; result: 1–10 µg/mL
CNC(=O)c1c(-c2ccc(F)cc2)oc2cc(NCCOC)c(OC(C)C)cc12 ; result: ≤0.5 µM
O=C(O)C(=O)/C=C(\O)c1cccc(NS(=O)(=O)c2cc(Cl)c(Cl)cc2Cl)c1 ; result: 0.95 µM
COc1ccc(CCC2(C3CCCC3)CC(=O)C(Oc3ccccc3)C(=O)O2)cc1OC ; result: 10–50 µM
COc1nc(Nc2ccc3[nH]ncc3c2)nc(N2CCN(C)CC2)n1 ; result: >10 µg/mL
O=C(O)CN1C(=O)C(=Cc2ccc(-c3ccc(Cl)c(Cl)c3)o2)SC1=S ; result: ≤1 µM
CCCCN(C1=C(O)C[C@](CCc2cccc(O)c2)(C2CCCC2)OC1=O)c1ccccc1 ; result: 1–10 µM
O=C(O)CCCCCc1ccc(N2C(=O)C(=Cc3ccc(-c4ccc(Cl)c(Cl)c4)o3)SC2=S)cc1 ; result: ≤1 µM
COC(=O)[C@@H]1CCCN1c1nc(Nc2ccc3cn[nH]c3c2)nc(OC)n1 ; result: >10 µg/mL
OCc1nnc(-c2ccc(N3CCC(Oc4cc(F)ccc4Br)CC3)nn2)o1 ; method: nucleotide incorporation / radiometric ; strain or isolate: 1b ; result: >80 µM
COc1ccc(-c2ccc(C=C3SC(=S)N(c4ccc(C(=O)O)cc4)C3=O)o2)nn1 ; result: ≤1 µM
COc1ccc(CCC2(C3CCCC3)CC(=O)CC(=O)O2)cn1 ; result: 10–50 µM
O=C(O)CCN1C(=O)C(=Cc2ccc(C#Cc3ccccc3)s2)SC1=S ; result: ≤1 µM
COc1nc(Nc2ccc3[nH]ncc3c2)nc(N2CCOCC2)n1 ; result: 0.1–1 µg/mL
O=C1NC(=S)S/C1=C/c1ccc(-c2cc(C(F)(F)F)ccc2Cl)o1 ; result: ≤1 µM
COC(=O)Cc1ccc(CCC2(C3CCCC3)CC(=O)CC(=O)O2)cc1 ; result: 10–50 µM
CNC(=O)c1c(-c2ccc(F)cc2)oc2cc(N3CCOCC3)c(OCc3cccc(C(=O)O)c3)cc12 ; result: ≤0.5 µM
CNC(=O)CN1CCN(c2nc(Nc3ccc4[nH]ncc4c3)nc(OC)n2)CC1 ; result: >10 µg/mL
COc1ccc(CCC2(C3CCCC3)CC(=O)C(C(C)=O)C(=O)O2)cc1 ; result: 10–50 µM
CNC(=O)c1c(-c2ccc(F)cc2)oc2cc(C3CCCN3C(=O)C3CC3)c(OC(C)C)cc12 ; result: ≤0.5 µM
O=C(O)CCN1C(=O)C(=Cc2ccc(-c3cc(Cl)cc(Cl)c3)o2)SC1=S ; result: ≤1 µM

ICn: concentration for n% inhibition. Two numbers with a dash give a range or band.